Results on two molecules are retold here after article PMC12439581 (mAbs, 2025).

Assay [1] has as its target biotinylated α-bungarotoxin from Bungarus multicinctus (Bungarus multicinctus, UniProt P60615, biotin (NHS-PEG4-biotin, amine coupling; sites not stated)). The assay can be described thus: DELFIA (dissociation-enhanced lanthanide fluorescence immunoassay).
Assay [2] has as its target α-cobratoxin from Naja kaouthia (Naja kaouthia, UniProt P01391). Conditions: both partners purified.

B1: C05 scFv with T31D (CDR-L1) (scFv, V domains shown)
VH: QVQLVQSGAEVKKPGSSVKVSCKASGGTFSSYAISWVRQAPGQGLEWMGGIIPIFGTANYAQKFQGRVTITADESTSTAYMELRSLRSDDTAVYYCARDNLGYCSGGSCYSDYYYYYMDVWGQGTLVTVSS
VL: NFMLTQPHSVSESPGKTVTISCTRSSGSIASDYVHWYQQRPGSAPTTVIYEDNQRPSGVPDRFSGSIDSSSNSASLTISGLKTEDEADYYCQSYDSSNGSVVFGGGTKLTVL
notes: source: E. coli BL21(DE3), in culture supernatant
Turning to B1, the binding result in assay [1] is listed as “binds”.

B2: D11-Y32A-Y49H scFv (scFv, V domains shown)
VH: QVQLVQSGAEVKKPGSSVKVSCKASGGTFSSYAISWVRQAPGQGLEWMGGIIPIFGTANYAQKFQGRVTITADESTSTAYMELRSLRSDDTAVYYCARDNLGYCSGGSCYSDYYYYYMDVWGQGTLVTVSS
VL: NFMLTQPRSVSESPGKTVTISCTRSSGSIGSDAVHWYQQRPGSSPTTVIHEDNQRPSGVPDRFSGSIDSSSNSASLTISGLKTEDEADYYCQSYDRSNHEVVFGGGTKLTVL
For B2, the binding result in assay [2] was “binds”.
